Measurements taken from patent publication US20130280271A1, “Inhibition of human immunodeficiency virus integrase reaching dimer formation utilizing single-chain variable antibodies” (INSTITUTE FOR CANCER RESEARCH, published 2013).
Substitutions are numbered along the chain they refer to. Names and notes keep the numbering of the source.

Tests used:
[1] = molecular target: the molecule itself; assay: static light scattering, 2.0 mg/ml; self-association
[2] = molecular target: the molecule itself; assay: light scattering, 1.63 mg/ml; self-association
[3] = molecular target: the molecule itself; assay: light scattering, 1.85 mg/ml; self-association
[4] = molecular target: the molecule itself; assay: static light scattering, 2.3 mg/ml; self-association
[5] = molecular target: the molecule itself; assay: static light scattering, 2.5 mg/ml; self-association
[6] = molecular target: the molecule itself; assay: static light scattering; self-association
[7] = molecular target: the molecule itself; assay: static light scattering, 2.2 mg/ml; self-association

B1: ASV IN(49-286) F199K (enzyme)
chain: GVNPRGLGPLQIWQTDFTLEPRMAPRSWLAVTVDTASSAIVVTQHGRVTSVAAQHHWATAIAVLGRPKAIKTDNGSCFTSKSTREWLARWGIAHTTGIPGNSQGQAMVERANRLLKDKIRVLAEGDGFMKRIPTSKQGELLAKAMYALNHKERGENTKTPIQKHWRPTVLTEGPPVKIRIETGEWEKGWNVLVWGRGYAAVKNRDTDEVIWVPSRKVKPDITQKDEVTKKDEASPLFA
B1: binds [1].

B2: HIV-1 IN wild type (His6-tagged, light scattering and SAXS preparations) (enzyme)
chain: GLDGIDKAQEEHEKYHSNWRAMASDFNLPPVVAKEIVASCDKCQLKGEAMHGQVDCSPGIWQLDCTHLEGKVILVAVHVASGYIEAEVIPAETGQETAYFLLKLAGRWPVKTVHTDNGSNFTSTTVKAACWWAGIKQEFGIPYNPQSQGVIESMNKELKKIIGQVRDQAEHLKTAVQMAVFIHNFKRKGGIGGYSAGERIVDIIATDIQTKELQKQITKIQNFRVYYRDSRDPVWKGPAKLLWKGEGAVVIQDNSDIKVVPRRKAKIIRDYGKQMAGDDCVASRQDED
notes: also called wild type HIV IN; HIV-1 IN WT
B2: binds [2].

B3: HIV-1 IN E11K (enzyme)
chain: B2 chain with E11K
B3: binds [3].

B4: ASV IN(1-286) wild type (enzyme)
chain: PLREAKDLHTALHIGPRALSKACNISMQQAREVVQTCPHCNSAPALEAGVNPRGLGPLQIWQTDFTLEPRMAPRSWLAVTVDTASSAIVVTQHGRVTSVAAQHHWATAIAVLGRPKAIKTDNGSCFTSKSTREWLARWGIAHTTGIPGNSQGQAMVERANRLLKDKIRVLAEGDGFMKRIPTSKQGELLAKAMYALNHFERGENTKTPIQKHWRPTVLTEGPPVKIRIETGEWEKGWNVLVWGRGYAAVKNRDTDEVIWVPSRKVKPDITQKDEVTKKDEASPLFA
B4: binds [4].

B5: ASV IN(1-286) F199K (enzyme)
chain: B4 chain with F199K
B5: binds [5].

B6: ASV IN(1-286) C23S/C125S/F199K/W259A (enzyme)
chain: B4 chain with C23S, C125S, F199K, W259A
B6: no binding (tested: 1.0 mg/ml) [6].

B7: ASV IN(1-286) E157C/F199K (enzyme)
chain: B4 chain with E157C, F199K
B7: binds [7].

B8: ASV IN(1-286) W259A (enzyme)
chain: B4 chain with W259A
B8: no binding (tested: 2.5 mg/ml) [6].
